Six molecules from the supplement of paper PMC12637763 can be followed below.

Positions count from the first letter of the chain named. Some of the results follow. Env chains of viruses from a treatment-interruption trial, translated from the printed DNA. IC50 / IC80 of two broadly neutralizing antibodies; lower = more sensitive virus; >50 µg/ml means not reached and <0.001 µg/ml is below the lowest dose. No active / inactive call.

Test [1] addresses antibody 10-1074. Kind of test: neutralization IC50; higher = virus less sensitive to the antibody. As to the method:
(§1)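 Pseudovirus bearing the Env chain mixed with antibody, from 50 µg/ml in fivefold dilutions, on TZM-bl reporter cells, in duplicate.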

Test [2] addresses antibody 3BNC117. The description is as above. As to the method: as §1
Test [3] concerns the target antibody 10-1074. Kind of test: neutralization IC80; higher = virus less sensitive to the antibody. On the procedure: as §1
Test [4] addresses antibody 3BNC117. The test is described as above. As to the method:
as §1

B1: HIV-1 Env, rebound clone, placebo arm (protein)
chain: MRVRGILRNYPQWWIWGILGFWMVMICNVVGNLWVTVYYGVPVWKDAKTTLFCASDAKAYDKEVHNVWATHACVPTDPNPRELVLGNVTENFNMWKNDMVDQMHEDVISLWDQSLKPCVKLTPLCVTLECVNANVTTVNVTNENINGTEEIKNCTFNATTEINDRKTREHALFYKLDIVPLETNHSSTKYRLINCNTSAVTQACPKVNFDPIPIHYCAPAGYAILKCNNKTFNGTGPCQNVSTVQCTHGIKPVVSTQLLLNGSLAEGEIIIRSENLTNNAKTIIVHLNDSIEITCIRPNNNTRKSIRIGPGQTFYATGDIIGDIRQAHCNISRNKWNQTLQRVSKKLGEHFPNATTIKFTSPSGGDLEIITHSFNCRGEFFYCNTSQLFNRTYMPNDTGSDSTGNSSDITDITIPCRIKQFINMWQGVGRAIYAPPIAGNITCKSNITGILLTRDGGRTNDNSTETFRPGGGDMRDNWRSELYKYKVVEIKPLGIAPTEAKRRVVAREKRAAGLGAVIFGFLGAAGSTMGAASMALTVQARQLLSGIVQQQSNLLRAIEAQQHMLQLTVWGIKQLQARVLAVERYLKDQRLLGIWGCSGKLICPTTVPWNSSWSNRSLADIWENMTWMQWDKEIDNYTNIIYSLLEESQNQQERNEQELLALDSWNSLWTWFSISNWLWYIKIFIMIVGGLIGLRIIFAVLSIVNRVRQGYSPLSFQTLTPNPREPDRLRGIEEEGGEQDRDRSIRLVNGFLALVWEDLRSLCLFSYHRLRDFILVTARAVELLGRSSYKGLQRGWEALKYLGSLVQYWGLELKKSAISLFDTLAIVIAGWTDRVIELGQRIGRTILHIPRRIRQGFERALL
As to B1, the figures for the “neutralization IC50” value in test [1] and in test [2] were 0.011 µg/mL and 0.04 µg/mL, respectively. Moreover, the “neutralization IC80” value in test [3] was determined as 0.026 µg/mL; in test [4], 0.136 µg/mL.

B2: HIV-1 Env, rebound clone, antibody arm (protein)
chain: MKVRVMQRNWQHLGRWGLLFLGLLICCNATEQLWVTVYYGVPVWKEATTTLFCASDAKGYEKEAHNVWATHACVPTDPNPQEIPLVNVTENFNMWKNNMVEQMQTDIISLWDQSLKPCVKLTPLCVTLNCNNNIKGANGNNSTNPDMKNCSFNMTTEVRDKRLKVSALFYKIDLTPLNETSGEYRLINCNTSTIKQACPKVSWDPIPIHYCAPAGYAILKCRDKNFNGTGPCNNVSTVQCTHGIKPVVSTQLLLNGSLAEEDIVIRTQNISDNAKTIIVSLNESVSINCIRPGNNTRKSIHIGPGQVFYANNDIIGDIRKAFCTLNGTQWNKTLDRVKAKLRSLFNKTTIIFAQPSGGDLEVTMHSFNCRGEFFYCNTSGLFNDIDSNITLPCRIKQIINMWQGVGQAMYTAPIAGNITCVSNITGLLLTRDGGPDNDNETFRPGGGDMRDNWRSELYKYKVVEIEPLGIAPTRAKRQVVRRERRAVGIGAMFLGFLGAAGSTMGAASIALTVQARQLLSGIVQQQNNLLRAIEAQQHLLQLTVWGIKQLQARVLAVERYLKDQQLLGVWGCSGKLICTTSVPWNSSWSNKSQQEIWDNMTWMDWEREISTYSQTIYKLLEESQYQQDKNEQELLALDKWASLWNWFDISNWLWYIRIFIMIVGGLIGLRIVFAGLAIVNRVRKGYSPLSLQTLIPNSRGPDRPEGIEEGGGEQDRDRSVRLVNGFLALVWDDLRNLCLFSYRLLRDFILIAARTVDRGLRGGWKALKYLWNLTQYWSRELKDSAISLYNSIAIAVAEGTDRIIEALQIIVRGVLHIPRRIRQGLERALL
Consider B2, for which the “neutralization IC50” value was > 50 µg/mL in test [1] and 0.219 µg/mL in test [2]. Further, the “neutralization IC80” value in test [3] and in test [4] was > 50 µg/mL throughout.

B3: HIV-1 Env, rebound clone, placebo arm (protein)
chain: MRVKGIRKSCQRLWRWGIMLLGMLMISSATEKLWVTVYYGVPVWKEANTTLFCASDAKAYDTEAHNVWATHACVPTDPNPQELDLENVTENFNMWKNGMVEQMHEDVISLWDQSLKPCVKLTPLCVTLNCTNDVNLRVNSSNSNSSINSSSSISNSSIEEKGEIKNCSFNITTSIRDKVTKEYALFYRLDIVSIKDDKSDNSNNTNTRYRLINCNTSVITQACPKVSFEPIPIHYCAPAGFAILKCKDREFNGSGTCQNVSTVQCTHGIKPVVSTQLLLNGSLAEGEVVIRSENFSDNAKTIIVQLSRPVVINCTRPNNNTRKSIHIAPGRTFYATGDIIGDIRQAHCNISKRDWNKTLKEVKGKLEKQYNKTILFNQSSGGDPEIVFHTFNCAGEFFYCNTTNLFNNNITINNGTNGTNTNENITLPCRIKQIINLWQEVGKAMYAPPIKGQIRCSSNITGLLLTRDGGLNENRTNDTVRPGGGDMRDNWRSELYRYKVVEIEPLGIAPTKAKRRVVQREKRAVGAIGAMFLGLLGAAGSTMGAASITLTVQARLVLSGIVQQQNNLLRAIEAQQHLLQLTVWGIKQLQARVLAVERYLKDQQLLGIWGCSGKLICTTSVPWNSSWSNRSLEYIWNNMTWMQWEREIDNYTGKIYTLIEEAQHKQEENELELLKLDEWSNLWNWFDISKWLWYIKIFIMIVGGLIGLRIVFAVISIVNRVRKGYSPLSFQTHFPAPRGPDRPGGTEEEGGDRDRDRSTRLVDGFLALVWDDLRSLILFLYHHLRDLLLIITRIVGLLGRRGWEILKYWWNLLQYWSRELKLSAISLYNATAVAVAEGTDRVIEVVQRIFRGVLHVPRRIRQGLERILV
For B3, the entries for the “neutralization IC50” value in test [1] and in test [2] were 0.013 µg/mL and 0.106 µg/mL, respectively. Also, the “neutralization IC80” value in test [3] turned out to be 0.05 µg/mL; in test [4] it was 0.374 µg/mL.

B4: HIV-1 Env, rebound clone, placebo arm (protein)
chain: B3 chain with Q439R
With B4, the “neutralization IC50” value amounted to 0.007 µg/mL in test [1] and 0.164 µg/mL in test [2]. Also, the “neutralization IC80” value in test [3] was 0.017 µg/mL; in test [4], 0.819 µg/mL.

B5: HIV-1 Env, rebound clone, placebo arm (protein)
chain: B3 chain with D133E
With B5, the results for the “neutralization IC50” value in test [1] and in test [2] were 0.01 µg/mL and 0.07 µg/mL, respectively. Also, the “neutralization IC80” value in test [3] is 0.035 µg/mL; in test [4], 0.259 µg/mL.

B6: HIV-1 Env, rebound clone, placebo arm (protein)
chain: B3 chain with T172A
As for B6, the “neutralization IC50” value in test [1] came to 0.015 µg/mL; in test [2], 0.133 µg/mL. Also, the “neutralization IC80” value came to 0.045 µg/mL in test [3] and 0.454 µg/mL in test [4].
